Measured values published in PMC10745491 (Frontiers in Cellular Neuroscience, 2023).

Target: HIV-1 protease (Human immunodeficiency virus type 1 group M subtype B, UniProt P04585)
Conditions: read-out: IC50 Ref

pepstatin A [reference compound]
IC50: 1700 nM
